PubChem BioAssay AID624099 – ICCB-Longwood, 2012

- Purpose: 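Knock-downs relieving repression by E2 of an HPV18 LCR luciferase reporter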 (primary screen)
- System: human C33A cervical carcinoma cells (HPV-negative) stably expressing BPV1 E2 and an HPV18 LCR luciferase reporter
- Knock-down reagent: siRNA pool against human genes, 40 nM
- Timing: 72 h
- Measured: 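HPV18 LCR reporter light per well, converted to plate-wise z-scores that exclude control wells, and averaged over triplicate plates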
- Reading the numbers: mean z-score and z-score: higher = stronger reporter signal, weaker E2 silencing
- Rule for the call: 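Hit if mean z-score reaches 2 and two or more of three replicate z-scores also reach 2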
The deposit covers about 21,000 reagents; below is an unselected part. 497 of them (2.4%) count as active. 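Higher z means weaker E2 silencing; only reporter increases were scored, and knock-downs that hurt cell survival may mask genuine repressor factors.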

Target gene	mean z-score	z-score, replicate A	z-score, replicate B	z-score, replicate C	outcome
ZNF567	-0.68	-0.53	-0.92	-0.59	inactive
HSD11B2	0.21	0.43	0.31	-0.1	inactive
RTL1	-0.24	-0.3	-0.31	-0.12	inactive
SCARF2	-0.24	-0.27	-0.07	-0.37	inactive
GALNT9	0.13	0.18	0.05	0.16	inactive
GSN	0.57	0.85	0.37	0.48	inactive
CDO1	2.77	2.51	2.71	3.08	active
SND1-IT1	1.07	1.02	1.35	0.85	inactive
NLRC3	-1.41	-1.07	-1.56	-1.6	inactive
COLEC10	-1.49	-1.61	-1.44	-1.42	inactive
ABHD12	-0.78	-0.78	-0.74	-0.81	inactive
C1QL2	0.18	0.37	-0.18	0.35	inactive
ERBB2	1.79	1.96	1.78	1.63	inactive

Limited to “z-score, replicate C” (4 entries from above):
NLRC3 = -1.6
COLEC10 = -1.42
ABHD12 = -0.81
C1QL2 = 0.35

Additional records follow.
Target gene	mean z-score	z-score, replicate A	z-score, replicate B	z-score, replicate C	outcome
SMIM12	0.74	0.4	1.15	0.67	inactive
EPPK1	0.58	0.44	0.61	0.67	inactive
RNF169	-2.19	-2.3	-2.15	-2.1	inactive
GIMAP8	0.11	0.37	-0.17	0.14	inactive
MYO1E	0.4	0.43	0.57	0.21	inactive
SLC23A1	-0.14	0.02	-0.14	-0.28	inactive
SEMA6B	-0.32	-0.21	-0.11	-0.63	inactive
HELQ	-0.14	-0.44	0.05	-0.03	inactive
SLC13A1	0.77	0.68	0.6	1.02	inactive
TTI1	0.2	0.3	0.03	0.27	inactive
OR8J3	-0.32	-0.48	-0.13	-0.37	inactive
WTIP	-0.69	-0.87	-0.44	-0.77	inactive
EREG	-0.52	-0.41	-0.56	-0.58	inactive
KCNAB3	-0.22	-0.37	0	-0.29	inactive
LINC00700	-1.18	-1.18	-1.08	-1.27	inactive
LOC221875 (retired record)	-0.15	-0.32	-0.18	0.04	inactive
ETFA	2.54	2.37	2.41	2.84	active
SNURF	-0.05	0.06	0.02	-0.23	inactive
KRT39	0.18	0.53	0	0.02	inactive
PPFIBP1	1.29	1.43	1.36	1.08	inactive
CCL23	3.1	2.99	3.21	3.11	active
TOR1B	-0.72	-0.3	-1	-0.85	inactive
AP3M2	0.39	0.15	0.13	0.88	inactive
PPIAP74	-0.86	-1.38	-0.76	-0.44	inactive
ZNF460	-0.66	-0.66	-0.8	-0.53	inactive
EFNB3	0.09	0.48	-0.21	-0.01	inactive
